{"sequences": {"note": "Amino acid sequences for entries named in this document (tags omitted).", "UniProt P33261, whole entry": "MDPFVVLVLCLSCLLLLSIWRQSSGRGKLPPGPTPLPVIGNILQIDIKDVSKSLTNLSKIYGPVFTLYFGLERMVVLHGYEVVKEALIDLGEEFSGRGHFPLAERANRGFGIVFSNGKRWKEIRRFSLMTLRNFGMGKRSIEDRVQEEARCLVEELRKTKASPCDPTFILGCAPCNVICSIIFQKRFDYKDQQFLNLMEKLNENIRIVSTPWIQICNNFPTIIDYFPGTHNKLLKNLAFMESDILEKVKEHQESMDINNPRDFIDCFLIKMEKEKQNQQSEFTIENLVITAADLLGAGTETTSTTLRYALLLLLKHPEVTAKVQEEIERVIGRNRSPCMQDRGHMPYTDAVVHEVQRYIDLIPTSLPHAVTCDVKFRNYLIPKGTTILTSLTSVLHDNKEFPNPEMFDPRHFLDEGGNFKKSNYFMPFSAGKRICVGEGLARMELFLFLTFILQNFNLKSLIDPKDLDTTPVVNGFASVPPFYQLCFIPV", "UniProt P05177, whole entry": "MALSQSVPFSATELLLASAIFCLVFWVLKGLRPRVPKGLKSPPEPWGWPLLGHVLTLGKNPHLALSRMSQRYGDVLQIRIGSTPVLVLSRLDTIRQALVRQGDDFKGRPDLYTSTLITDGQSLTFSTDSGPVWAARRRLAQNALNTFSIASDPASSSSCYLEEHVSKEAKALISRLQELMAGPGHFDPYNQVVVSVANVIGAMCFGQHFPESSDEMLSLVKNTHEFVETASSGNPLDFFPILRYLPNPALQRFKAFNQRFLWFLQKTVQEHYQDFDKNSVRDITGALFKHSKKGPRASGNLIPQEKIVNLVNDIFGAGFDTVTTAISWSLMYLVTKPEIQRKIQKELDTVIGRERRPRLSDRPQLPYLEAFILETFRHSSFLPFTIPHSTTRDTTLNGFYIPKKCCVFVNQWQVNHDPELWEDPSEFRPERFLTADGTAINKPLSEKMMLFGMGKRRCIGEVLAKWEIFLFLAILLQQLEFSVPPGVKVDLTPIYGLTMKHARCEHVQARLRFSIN", "UniProt P10635, whole entry": "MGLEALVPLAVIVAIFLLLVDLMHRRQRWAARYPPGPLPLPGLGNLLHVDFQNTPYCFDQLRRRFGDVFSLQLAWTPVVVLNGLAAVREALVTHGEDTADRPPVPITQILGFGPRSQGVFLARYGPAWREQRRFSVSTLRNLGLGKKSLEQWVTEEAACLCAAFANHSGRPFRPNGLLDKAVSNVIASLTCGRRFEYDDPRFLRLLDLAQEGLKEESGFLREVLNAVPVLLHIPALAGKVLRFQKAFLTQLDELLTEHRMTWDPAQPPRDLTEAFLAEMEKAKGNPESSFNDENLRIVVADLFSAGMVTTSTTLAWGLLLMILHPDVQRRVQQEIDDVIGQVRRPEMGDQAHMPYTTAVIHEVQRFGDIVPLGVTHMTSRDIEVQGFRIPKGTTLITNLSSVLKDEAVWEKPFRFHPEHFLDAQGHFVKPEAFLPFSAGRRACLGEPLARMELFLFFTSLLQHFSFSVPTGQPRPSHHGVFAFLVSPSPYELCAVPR"}, "source": "paper PMC9320654", "about": "“Study on In Vitro Metabolism and In Vivo Pharmacokinetics of Beauvericin” (Toxins, 2022)", "key": {"[1]": {"experiment": "Metabolic stability in liver microsomes, DLM", "assay_type": "in vitro ADME, beagle dog", "conditions": "scaled from DLM CLint(mic)", "description": "[…]. […] […]"}, "[2]": {"experiment": "Metabolic stability in cryopreserved hepatocytes, mouse", "assay_type": "in vitro ADME, CD-1 mouse", "experimental": "BEA (10 mM) was incubated in duplicate in a 96-well plate containing a suspension of mouse, rat, monkey, dog, or human hepatocytes (0.5 × 10^6 cells/mL) at 37 °C for 1.5 h in a controlled atmosphere (5% CO2, 95% humidified incubator). BEA and the control were prepared with 50 μL of DMSO and 450 μL of acetonitrile (ACN) to achieve a final concentration of 1 μM, and then spiked into each well of 96-well plates in duplicates. Samples were withdrawn from the reaction mixture at 0, 15, 30, 60, and 90 min and were quenched with stop solution (acetonitrile containing 200 ng/mL tolbutamide and 200 ng/mL labetalol as internal standards). A cocktail of 7-ethoxycoumarin (Lot#: I1825085) was used as the positive control for the assay. The analytical plates were sealed and stored at 4 °C until LC-MS/MS analysis. The data obtained from the BEA metabolic stability assays were used to calculate the intrinsic clearance and remaining percentages, as described in Table 4 and Figure 4.\nThe remaining percentages of test articles after incubation were calculated by the following equations:(7) %Remainingat Appointed Time=Peak Area Ratios of Test Article versus Internal Standard at Appointed Time/Peak Area Ratios of Test Article versus Internal Standard 0 min\nWe used the equation of first order kinetics to calculate T1/2 and CLint: […]"}, "[3]": {"experiment": "Plasma stability, human plasma", "assay_type": "in vitro ADME", "experimental": "(§1) The pooled frozen plasma was thawed in a water bath at 37 °C prior to the experiment. Plasma was centrifuged at 4000 rpm for 5 min, and the clots, if any, were removed. Using an Apricot automation workstation, blank plasma (98 μL/well) was added to six 96-well reaction plates (Blank, T0, T10, T30, T60, and T120). An Apricot automation workstation was used to add working solution (2 μL/well, 100 μM) to all reaction plates except the Blank plate (T0, T10, T30, T60, and T120). All reaction plates containing mixtures of compound and plasma were incubated at 37 °C in a water bath. At the end of the incubation, 400 μL of stop solution (200 ng/mL tolbutamide and 200 ng/mL labetalol in acetonitrile) was added to precipitate the protein, and the mixture was mixed thoroughly. Samples were then vortexed and centrifuged (20 min, 4000 rpm, 4 °C). After centrifugation, an Apricot automation workstation was used to transfer 50 μL of supernatant into 100 μL of HPLC water. […] The % remaining test compound after incubation in plasma was calculated using the following equation:(11) % Remaining= PAR at appointed incubation time/PAR at T0 time×100 where PAR is the peak area ratio of analyte versus internal standard (IS). […]"}, "[4]": {"experiment": "Plasma stability, mouse plasma", "assay_type": "in vitro ADME", "experimental": "as §1"}, "[5]": {"experiment": "Metabolite identification by LC-UV-MS^n in rat liver microsomes", "assay_type": "in vitro ADME", "set-up": "key: +: metabolite was detected in liver microsomes; -: metabolite was detected in liver microsomes", "conditions": "BEA 10 µM, 37 °C, 60 min", "experimental": "(§2) The objectives of this study were to search for and to identify the metabolites of BEA in liver microsomes from mice, rats, dogs, monkeys and humans by LC-UV-MS^n (n = 1~2) (based on peak intensity ≥ 1% of total drug related components), and to propose its metabolic pathways.\n(§3) The test compound BEA at 10 µM was incubated with liver microsomes at 37 °C for 60 min. The positive control, 7-ethoxycoumarin (7-EC) at 10 µM, was run concurrently to assess Phase I metabolic activities in liver microsomes. […] After incubation, the samples were analyzed by LC-UV-MS (Table S7). The structures of the metabolites were proposed based on the interpretation of their MS and MS2 data. The results are presented in Table 6 and Figure 6. %Total=Peak Area of a Releted Component/Peak Area of Total Releted Component×100%"}, "[6]": {"experiment": "Metabolite identification by LC-UV-MS^n in mouse liver microsomes", "assay_type": "in vitro ADME", "set-up": "key: +: metabolite was detected in liver microsomes; -: metabolite was detected in liver microsomes", "conditions": "BEA 10 µM, 37 °C, 60 min", "experimental": "as §2, §3"}, "[7]": {"experiment": "Metabolite identification by LC-UV-MS^n in monkey liver microsomes", "assay_type": "in vitro ADME", "set-up": "key to Detected in liver microsomes: Monkey: +: metabolite was detected in liver microsomes; -: metabolite was not detected in liver microsomes", "experimental": "as §2, §3"}, "CYP2C19": {"biological_target": "T1, CYP2C19 (Homo sapiens, UniProt P33261)", "T1 construct": "tissue Corning or Xenotech; host or cells: human liver microsomes (mixed gender)", "conditions": "cited from earlier work"}, "CYP3A1/2": {"test_system": "CYP3A1/2", "set-up": "method as in PMID 18956271", "conditions": "rat liver microsomes; cited from earlier work"}, "[8]": {"experiment": "Metabolic stability in liver microsomes, MLM", "conditions": "scaled from MLM CLint(mic)"}, "[9]": {"experiment": "Metabolic stability in liver microsomes, CLM", "conditions": "scaled from CLM CLint(mic)"}, "CYP1A2": {"biological_target": "CYP1A2 (Homo sapiens, UniProt P05177)", "experiment": "CYP inhibition evaluation in human liver microsomes, CYP1A2 (phenacetin)", "conditions": "HLMs"}, "CYP2D6": {"biological_target": "CYP2D6 (Homo sapiens, UniProt P10635)", "experiment": "CYP inhibition evaluation in human liver microsomes, CYP2D6 (dextromethorphan)", "conditions": "HLMs"}, "[10]": {"conditions": "dialysis 5 h, 37 °C, BEA 2 μM, warfarin 1 μM, n = 3"}}, "note": "Several values for one entry are separate records, joined by “and”; a condition that tells them apart may be missing. Identical values can stand only once. Entries after “also recorded” stand apart in the source; their conditions may differ.", "data": [{"substance": "Beauvericin", "values": [{"measurement": "CLint(liver)", "setting": "[1]", "result": 329.4, "unit": "mL/min/kg"}, {"measurement": "CLint (hep) (μL/min/10^6)", "setting": "[2]", "result": 19.3, "unit": "μL/min/10^6"}, {"measurement": "Remaining % (T = 90 min)", "setting": "[2]; 90 min", "result": 41.7, "unit": "%"}, {"measurement": "T1/2", "setting": "[3]; 37 °C, n = 2", "result": ">4.82", "unit": "h"}, {"measurement": "Remaining % (T = 120 min)", "setting": "[3]; 120 min", "result": 106.0, "unit": "%"}, {"measurement": "T1/2", "setting": "[4]; 37 °C, n = 2", "result": ">4.82", "unit": "h"}, {"measurement": "Remaining % (T = 120 min)", "setting": "[4]; 120 min", "result": 110.6, "unit": "%"}, {"measurement": "Detected in liver microsomes: Rat", "setting": "[5]", "result": "+"}, {"measurement": "Detected in liver microsomes: Mouse", "setting": "[6]", "result": "+"}, {"measurement": "Detected in liver microsomes: Monkey", "setting": "[7]; BEA 10 µM, 37 °C, 60 min", "result": "+"}, {"measurement": "Number of metabolites identified", "setting": "[7]; CLM", "result": "Fifteen"}, {"measurement": "Fu (%), unbound fraction", "setting": "rat plasma proteins", "result": 0.07, "unit": "%"}, {"measurement": "Bound Fraction (%)", "setting": "rat plasma proteins; [10]", "result": "> 90% and 99.93 ± 2.90%"}, {"measurement": "Fu (%), unbound fraction", "setting": "mouse plasma proteins", "result": 0.06, "unit": "%"}, {"measurement": "Bound Fraction (%)", "setting": "mouse plasma proteins; [10]", "result": "> 90% and 99.94 ± 0.57%"}, {"measurement": "Fu (%), unbound fraction", "setting": "dog plasma proteins", "result": 0.08, "unit": "%"}, {"measurement": "Bound Fraction (%)", "setting": "dog plasma proteins; [10]", "result": "> 90% and 99.92 ± 2.91%"}, {"measurement": "Inhibition of mephenytoin 4′-hydroxylase (CYP2C19) activity", "setting": "CYP2C19; human liver microsomes", "result": "strongly inhibited; also recorded: strong inhibitor"}, {"measurement": "Inhibition mechanism, CYP2C19", "setting": "CYP2C19; ref 20 (Li Mei's group)", "result": "competitive"}, {"measurement": "Inhibition of CYP3A1/2", "setting": "CYP3A1/2", "result": "strong inhibitor"}, {"measurement": "CLint(liver)", "setting": "[8]", "result": 446.2, "unit": "mL/min/kg"}, {"measurement": "CLint(liver)", "setting": "[9]", "result": 258.0, "unit": "mL/min/kg"}, {"measurement": "CYP1A2 inhibitor class", "setting": "CYP1A2", "result": "weak inhibitor (IC50 > 10 μM—weak inhibitor)"}, {"measurement": "CYP2D6 inhibitor class", "setting": "CYP2D6", "result": "weak inhibitor (IC50 > 10 μM—weak inhibitor)"}]}]}
